Pooled drug test results. Numbers come from NIAID ChemDB, via PubChem.

Shared fields: target-level tests; species: Pneumocystis carinii

Inhibition is in % at the dose shown (toxicity tests: loss of growth or viability). Blank or dashed fields: not listed here. Lines come from different laboratories, so protocols vary. a–b is a range or a potency band. ICn is the concentration giving n% inhibition.

smiles,dose,read-out,target,result
Nc1nc2occ(-c3ccccc3F)c2c(=O)[nH]1,-,IC50,DHFR,65 µM
C[N+](C)([O-])CCCCCCCCCCOc1ccc2ccc(=O)oc2c1,-,IC50,Oxidosqualene cyclase,0.16 µM
Nc1nc(N)c2c(Cl)cccc2n1,-,IC50,DHFR,0.42 µM
COc1cc(-c2coc3nc(N)nc(N)c23)cc(OC)c1OC,-,IC50,DHFR,>300 µM
O=C(O)c1ccc(Cl)cc1Cl,-,IC50,DHPS,>1000 µM
CC1(C)N=C(N)N=C(N)N1c1ccc(CN2C(N)=NC(N)NC2(C)C)cc1,-,IC50,DHFR,2 µM
CC(=O)NS(=O)(=O)c1ccc(N=NC2C(=O)N(C(=O)c3ccncc3)N=C2C)cc1,-,IC50,DHPS,2105 µM
Cn1c2ccc(C3=NCCCN3)cc2c2cc(C3=NCCCN3)ccc21,-,IC50,Topoisomerase II,10–50 µM
Nc1cccc(C(=O)O)c1,-,IC50,DHPS,1700 µM
Nc1nc(N)c2c(CNc3cc(Cl)c(-n4cccc4)c(Cl)c3)csc2n1,10 µM,inhibition,DHFR,<30%
CC(=O)Nc1ccc(S(=O)(=O)Nc2ccc3oc(=O)[nH]c3c2)cc1,-,IC50,DHPS,601.6 µM
c1cc(-c2ccc(-c3ccc(C4=NCCCN4)cc3)o2)ccc1C1=NCCCN1,-,IC50,Ergosterol,34 µM
COc1cc(C2c3c(nc(N)[nH]c3=O)OC2[N+](=O)[O-])cc(OC)c1OC,-,IC50,DHFR,130 µM
N=C(N)c1ccc2c(c1)[nH]c1cc(C(=N)N)ccc12,-,IC50,Ergosterol,10 µM
CCCCCCCCCCCC1(C)N=C(N)N=C(N)N1c1ccc(Cl)cc1,-,IC50,DHFR,20.4 µM
C=CC[N+](C)([O-])CCCCCCCCCCOc1ccc2ccc(=O)oc2c1,-,IC50,Oxidosqualene cyclase,0.05 µM
CC(C)N/N=C/c1ccc(-c2ccnc(-c3ccc(/C=N/NC(C)C)cc3)n2)cc1,-,IC50,Topoisomerase II,3000–12000 µM
Cl.Nc1ccc(C(=O)O)cc1N,-,IC50,DHPS,220 µM
Nc1nc(N)c2c3c(c(-c4ccccc4)nc2n1)CCCC3,-,IC50,DHFR,6.8 µM
Nc1nc2ccc(NCc3cccnc3)cc2c(=O)[nH]1,-,IC50,Thymidylate synthetase,42 µM
CSc1cccc2nc(N)nc(N)c12,-,IC50,DHFR,1.1 µM
O=C(c1ccc(Cl)cc1)c1ccc(OCCN2CCN(CCO)CC2)cc1,10 µM,inhibition,Oxidosqualene cyclase,20%
c1cc2[nH]c(-c3ccc4c(c3)[nH]c3cc(-c5nc6cc(C7=NCCN7)ccc6[nH]5)ccc34)nc2cc1C1=NCCN1,-,IC50,Topoisomerase II,25 µM
O=c1ccc2ccc(OCCCCCCN3CCOCC3)cc2o1,-,IC50,Oxidosqualene cyclase,78.76 µM
CC(=O)Nc1ccc(S(=O)(=O)NC(=O)NCCC(C)C)cc1,-,IC50,DHPS,783.6 µM
C=CCN(C)CC#CCCCCOc1ccc2ccc(=O)oc2c1,-,IC50,Oxidosqualene cyclase,0.07 µM
c1cc2c(cc1C1=NCCCN1)c1cc(C3=NCCCN3)ccc1n2CC1CCCCC1,-,IC50,Topoisomerase II,1000 µM
COc1cc(NCc2csc3nc(N)nc(N)c23)cc(OC)c1OC,10 µM,inhibition,DHFR,<30%
COc1cc(/C=N/NC(C)C)ccc1-c1ccnc(-c2ccc(/C=N/NC(C)C)cc2)n1,-,IC50,Topoisomerase II,3000–6000 µM
Nc1nc2ccc(NCc3ccc([N+](=O)[O-])cc3)cc2c(=O)[nH]1,-,IC50,Thymidylate synthetase,120 µM
COc1ccc(-c2coc3nc(N)[nH]c(=O)c23)cc1,-,IC50,DHFR,50 µM
N=C(N)c1ccc2[nH]c3ccc(C(=N)N)cc3c2c1,-,IC50,Topoisomerase II,100 µM
Nc1nc(N)c2c(C(F)(F)F)cccc2n1,-,IC50,DHFR,82 µM
COc1cccc(OC)c1C1c2c(nc(N)[nH]c2=O)OC1[N+](=O)[O-],-,IC50,DHFR,100 µM
N=C(N)c1ccc(-c2ccc(-c3ccc(C(=N)N)cc3)o2)cc1,-,IC50,Ergosterol,58 µM
COc1cccc2nc(N)nc(N)c12,-,IC50,DHFR,4.5 µM
O=c1ccc2ccc(OCC#CCN3CCCC3)cc2o1,-,IC50,Oxidosqualene cyclase,0.52 µM
O=c1[nH]cnc2c1ncn2[C@@H]1O[C@H](CO)[C@@H](O)[C@H]1O,10 µM,inhibition,DHPS,0%
Cn1c2cc(C3=NCCN3)ccc2c2ccc(C3=NCCN3)cc21,-,IC50,Topoisomerase II,50 µM
C=CCN(C)CCCCCCCCCCOc1ccc2ccc(=O)oc2c1,-,IC50,Oxidosqualene cyclase,0.18 µM
O=CNc1ccc(S(=O)(=O)c2ccc(NC=O)cc2)cc1,-,IC50,DHPS,621.8 µM
c1cc2c(cc1C1=NCCN1)[nH]c1cc(C3=NCCN3)ccc12,-,IC50,Topoisomerase II,25 µM
Nc1nc2occ(-c3ccc(F)cc3)c2c(=O)[nH]1,-,IC50,DHFR,100 µM
CC(C)N=C(N)c1ccc2[nH]c3ccc(C(N)=NC(C)C)cc3c2c1,-,IC50,Ergosterol,>500 µM

For reference, 4 entries again:

{"smiles": "COc1cc(/C=N/NC(C)C)ccc1-c1ccnc(-c2ccc(/C=N/NC(C)C)cc2)n1", "read-out": "IC50", "target": "Topoisomerase II", "result": "3000–6000 µM"}
{"smiles": "C[N+](C)([O-])CCCCCCCCCCOc1ccc2ccc(=O)oc2c1", "read-out": "IC50", "target": "Oxidosqualene cyclase", "result": "0.16 µM"}
{"smiles": "Nc1nc(N)c2c(CNc3cc(Cl)c(-n4cccc4)c(Cl)c3)csc2n1", "dose": "10 µM", "read-out": "inhibition", "target": "DHFR", "result": "<30%"}
{"smiles": "Cn1c2cc(C3=NCCN3)ccc2c2ccc(C3=NCCN3)cc21", "read-out": "IC50", "target": "Topoisomerase II", "result": "50 µM"}